Taken from: PubChem BioAssay AID504761 (Drosophila RNAi Screening Center, 2011)

Purpose: 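Insect host genes that dengue virus relies on to spread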 (primary screen)
System: D.Mel-2 cells from Drosophila
Reagents: long dsRNA against Drosophila genes
Challenge: infection with dengue virus type 2; dose and infection time not stated
Measured: 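Cells stained for dengue envelope protein and imaged; percent of infected cells per well on duplicate plates, ranked by infection, with stained nuclei counted for cell number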
Scale: infection score: higher = more virus-infected cells; cell count: higher = more cells in the well
Active means: 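Low infection ranks in the two replicates (chance level up to 0.065) followed by a retest with a 1.5-fold or larger significant decrease, p below 0.05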
Meaning of the calls: active = confirmed: knock-down lowers infection; inactive = not picked or not confirmed
In all, the deposit lists about 22,000 reagents; below is an unselected part of those that have a named target and a result. In the full data, 116 (0.52%) got an active call. 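Calls depend on retest data that are not deposited; infection was ranked per plate without normalising between plates; the unit of the infection score is not given.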 Raw values are not corrected between plates. Unmarked entries are inactive. Reagents against one gene are numbered here. Reagent sequences are not shown. Not given: the amount of reagent, the time to read-out.

infection score, replicate 1	infection score, replicate 2	cell count, replicate 1	cell count, replicate 2	Gene	dsRNA no.
0.93	0.36	5393	5316	Xrp1	1
8.92	10.8	5528	5187	Xrp1	2
2.99	8.06	6061	6230	CG30344	1
1.98	0.88	5913	6399	CG30344	2
6.82	5.34	6700	6513	CG12343	1
3.18	5.33	6669	6716	ZnT86D	1
9.53	6.05	6526	6433	CG4945	1
15.3	1.06	5441	567	CG4945	2
4.15	5.86	6919	7047	Jheh1	1
4.57	4.41	6471	6616	Jheh1	2
1.54	1.94	6100	6965	CG33003	1
8.28	19.4	6049	5659	CG33003	2
		427	310	tmod	1
	3.95	376	6325	tmod	2
1.7	2.2	5520	6314	tmod	3
2.94	2.32	6529	7035	tmod	4
8.3		5966	229	NaPi-III	1
2.22	1.84	5902	6470	NaPi-III	2
11	9.5	5491	3380	NaPi-III	3
4.92	18.4	5018	4663	NaPi-III	4
14.5	9.44	5977	2669	Fnta	1
21.4	8.1	5693	5542	Fnta	2
12.6	2.98	5784	6703	Iris	1
